A mixed list of measured activities; the numbers were collected in NIAID ChemDB.

Shared fields: toxicity to cultured cells; cell line: CEM; measure: CC50

Neighbouring rows are from separate reports. CCn: concentration that lowers growth or viability of the cells by n%.

CN(C)[C@@H]1C(=O)C(C(=O)NCNC2(C(=O)[O-])CCCC2)=C(O)[C@@]2(O)C(=O)C3=C(O)c4c(O)cccc4[C@@](C)(O)[C@H]3C[C@@H]12.[Na+] ; result: >0.6 µM
Cc1cn([C@H]2C[C@H](F)[C@@H](CO)O2)c(=O)[nH]c1=O ; result: 0.58 µg/mL
CCOP(=O)(CO[C@H]1C[C@@H](n2cnc3c(Cl)nc(N)nc32)C(F)(F)C1)OCC ; result: >100 µM
CN(C)C1C(=O)C(C(=O)NCNC2C(=O)N3C2SC(C)(C)C3C(=O)O)=C(O)C2(O)C(=O)C3=C(O)c4c(O)cccc4C(C)(O)C3CC12 ; result: >268 µM
Cc1ccc(NC(=O)C23CC4CC(CC(C4)C2)C3)c(C(=O)N/N=C/c2ccc(C)o2)c1 ; result: >200 µM
OB(O)c1ccc(Br)cc1 ; read by: MTT ; result: 205 µM
COc1cc2nc(C34CC5CC(CC(C5)C3)C4)oc(=O)c2cc1OC ; result: 65.8 µM
O=Cc1ccc(B(O)O)cc1 ; read by: MTT ; result: 120 µM
CCOP(=O)(CO[C@H]1C[C@@H](n2cnc3c(N)nc(F)nc32)C(F)(F)C1)OCC ; result: >100 µM
CN/N=C(/c1nc2ccc([N+](=O)[O-])cc2[nH]c1=O)C(O)c1ccc(C(O)/C(=N/NC)c2nc3ccc([N+](=O)[O-])cc3[nH]c2=O)cc1 ; result: >78 µM
CCNC(=O)c1cc(OC)c(OC)cc1NC(=O)C12CC3CC(CC(C3)C1)C2 ; result: >200 µM
O=C(NC1CC1)c1ccc(B(O)O)cc1 ; read by: MTT ; result: >250 µM
NC(N)=NS(=O)(=O)c1ccc(Nc2c3ccccc3nc3c(C(=O)NC(CO)(CO)CO)cccc23)cc1 ; result: >3.3 µM
Nc1ccn([C@H]2CC[C@@H](CO)O2)c(=O)n1 ; result: >20 µg/mL
O=C(O)c1ccc2ccc(/C=C/c3ccc(O)c(O)c3)nc2c1O ; result: >100 µM
OCc1ccccc1B(O)O ; read by: MTT ; result: 148 µM
NNC(=O)c1cc(Br)ccc1NC(=O)C12CC3CC(CC(C3)C1)C2 ; result: 15.8 µM
OB(O)c1ccccc1CN1CCSCC1 ; read by: MTT ; result: 156 µM
O/N=C1\C(=C\c2ccc3c(c2)OCCO3)CCCC1C(NO)c1ccc2c(c1)OCCO2 ; result: >165 µM
Cc1cn([C@H]2C[C@H](N=[N+]=[N-])[C@@H](CO)O2)c(=O)[nH]c1=O ; result: 11.6 µM
CN(C)C1C(=O)C(C(=O)NCNCCCO)=C(O)C2(O)C(=O)C3=C(O)c4c(O)cccc4C(C)(O)C3CC12 ; result: >120 µM
CCN(CC)C(=O)c1ccc(B(O)O)cc1 ; read by: MTT ; result: >250 µM

The first 3 rows once more:

{"compound": "CN(C)[C@@H]1C(=O)C(C(=O)NCNC2(C(=O)[O-])CCCC2)=C(O)[C@@]2(O)C(=O)C3=C(O)c4c(O)cccc4[C@@](C)(O)[C@H]3C[C@@H]12.[Na+]", "result": ">0.6 µM"}
{"compound": "Cc1cn([C@H]2C[C@H](F)[C@@H](CO)O2)c(=O)[nH]c1=O", "result": "0.58 µg/mL"}
{"compound": "CCOP(=O)(CO[C@H]1C[C@@H](n2cnc3c(Cl)nc(N)nc32)C(F)(F)C1)OCC", "result": ">100 µM"}